From publication PMC9430380, “Oridonin Attenuates Burkholderia cenocepacia Virulence by Suppressing Quorum-Sensing Signaling” (Microbiology Spectrum, 2022)
Construct, isoform or probe ends are uncertain for at least one entry. At least one verdict was read from the data and is not stated in words by the source. Tags and fusion partners may be left off the protein sequences shown.

Legend:
[1] = test system: T1, CepR; experiment: EMSA; details: no oridonin; EMSA: 30 min at room temperature, manufacturer's (Thermo Fisher) binding reaction, 5% polyacrylamide gel; salt and pH not given; recombinant protein; residues 1-239; label: biotin 3' end; probe letters rebuilt from the primers and the genome
T1 sequence (looked up): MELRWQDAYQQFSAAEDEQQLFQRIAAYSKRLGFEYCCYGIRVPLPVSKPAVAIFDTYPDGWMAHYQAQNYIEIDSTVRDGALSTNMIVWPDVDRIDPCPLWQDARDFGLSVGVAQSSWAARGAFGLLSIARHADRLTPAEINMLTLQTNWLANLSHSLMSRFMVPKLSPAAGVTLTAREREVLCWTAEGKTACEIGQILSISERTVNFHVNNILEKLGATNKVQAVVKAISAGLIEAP

[2] = test system: T2, RqpR; experiment: EMSA; details: no oridonin; EMSA: 30 min at room temperature, manufacturer's (Thermo Fisher) binding reaction, 5% polyacrylamide gel; salt and pH not given; recombinant protein; residues 1-218; protein details: His tag, TEV cleavage of fusion described; probe letters rebuilt from the primers and the genome
T2 sequence (looked up): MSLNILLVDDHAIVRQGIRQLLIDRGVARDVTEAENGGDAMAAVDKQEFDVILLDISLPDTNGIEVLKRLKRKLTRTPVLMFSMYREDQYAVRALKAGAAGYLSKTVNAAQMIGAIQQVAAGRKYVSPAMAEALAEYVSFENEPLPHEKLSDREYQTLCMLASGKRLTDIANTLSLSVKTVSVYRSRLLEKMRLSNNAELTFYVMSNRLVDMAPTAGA

“CGAACATGAATAGGGCCTCACCGGCGCCGCACCCGTGAAGCATATCGATGGGGCCAGCCGCCGCCTATCGGACTGGACTGATTCTGCGCCAACGCGCGTGTCGGGAGACGACGCGGAATGAATGCGACCGGTTGACAGCCGTGGCCACCCTGTGATTTGATGCCGGTCATGCACGCCGCCCAGTTCCTCTTCTCGCTACGACTACTAGCCCGCTTCTCCGGGCTGGGTCTGCGGCTGCGCGCTTTCCATCTGCTTCTTTCCTGAAGCGCCAGATTTTCCCCGCATCACCGACCTGGCCCCGGTTGTCGACCGGCGCCTGAGTTCGTCTTTCTTCCGTCACCACTCCGCTCCGTCCCGGTCGCCCAACCGCCAAGGCCGTCGTTTGCCGTACCGCTTTGCCGTTGTGCCGCTTTTTTGCCGTTCTTACCGCTGCGCATGGACCCGGCTCATCACGCCGATGGCCGCCGCGCCGCGCTTCACCGACAAACAGACCGAGGACCGACATC (double strand) [bclACB promoter probe]”: binds [1].

“GTCGAAGCTCTCCGCGCGTTCGTTGCCGGGCGTCAGCGCCGCGCGCCGGAGCGGGAGTCGTACCGCATGACGCGCGCATGACAAGCCTCTCGCGCGCACTCGCACGCGGGGCCGTCGTGCGGCCCAGTGTGGGCGACGGGCCGGCGAGCGTCAAGCCGCGCCAGCGGGAAGGAGACCTCATGCCGATCGGTGACGCTTGCGCAACCGGTGACCGCGTGATGGCGTTCGCGTGGCTGCGTGTGATCCTGTTCGGCACGCTGCCAACGGTGCTGCATCCCGAACGGCCGCATCCGAAGCCGATCGACGCCGAGCGGCCATGCGCGCCGCGCGCGCCCTCTCGCTCACGACGAGACGAATCGCCCCCACGCCGGTCGACCCGATCCGCAACAGCGGATCGGCGTCCTGACGTCGCTTTCAGCGCGTAAGCGACCGGCGACGCCGGCGCGCCCGCTCCACTCGAGTCCCCTCCCCCACCGACCTCAACCCGTCGTCCCGCCCTCCGTCGTCACCCGCCCTTTCGCCCGACCGCAAGCCGCACGGGTTTTCCGTTCGTGCGTTGTTCCCCGCAATTCGACTTTTGTGCGCGCGCAACAATGGCGATGCCTCGCGCCAGGCGCCCCGGCGGGCAACCCGATACCCGCATGGCGCATGGCGCGACGGTCTTTAAAACCACATCTCACGAGGACATACC (double strand) [rpfFBC promoter probe]”: binds [2].
